PubChem BioAssay AID624099 | ICCB-Longwood | 2012
Screen: 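Knock-downs relieving repression by E2 of an HPV18 LCR luciferase reporter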 (primary screen). Cells: human C33A cervical carcinoma cells (HPV-negative) stably expressing BPV1 E2 and an HPV18 LCR luciferase reporter. Reagent: siRNA pool against human genes, 40 nM. Timing: 72 h. Measured: 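Per-well luciferase luminescence, z-scored on each plate against the plate mean and SD with control wells left out, then averaged across three replicate plates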. Reading the numbers: mean z-score and z-score: higher = stronger reporter signal, weaker E2 silencing. Active means: 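Mean z ≥ 2 together with z ≥ 2 in two or more of the three replicates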.
This is an unselected part of about 21,000 deposited reagents. 497 of them (2.4%) count as active. 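Higher z means weaker E2 silencing; only reporter increases were scored, and knock-downs that hurt cell survival may mask genuine repressor factors.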

For RNASE8 [SID134321111], what was measured?
mean z-score: 1.19; z-score, replicate A: 1.29; z-score, replicate B: 0.98; z-score, replicate C: 1.32; call: inactive

With VIT [SID134319766], what was measured?
mean z-score: -0.36; z-score, replicate A: -0.15; z-score, replicate B: -0.39; z-score, replicate C: -0.54; call: inactive

What did the screen give for FAM216B [SID134322794]?
mean z-score: 0.25; z-score, replicate A: 0.44; z-score, replicate B: 0.31; z-score, replicate C: 0.01; call: inactive

For FAR2 [SID134322548], how do the results read?
mean z-score: -0.26; z-score, replicate A: -0.43; z-score, replicate B: -0.7; z-score, replicate C: 0.36; call: inactive

What is on record for GID4 [SID134321283]?
mean z-score: 0.63; z-score, replicate A: 0.66; z-score, replicate B: 0.67; z-score, replicate C: 0.57; call: inactive

With CCDC81 [SID134318173], what does the deposit list?
mean z-score: -0.48; z-score, replicate A: -1.03; z-score, replicate B: -0.21; z-score, replicate C: -0.21; call: inactive

Which result is listed for CCM2 [SID134318831]?
mean z-score: 0.09; z-score, replicate A: -0.19; z-score, replicate B: 0.06; z-score, replicate C: 0.41; call: inactive

With KCNH3 [SID134315199], what was measured?
mean z-score: -0.68; z-score, replicate A: -0.57; z-score, replicate B: -0.6; z-score, replicate C: -0.87; call: inactive

What is on record for LYNX1 [SID134317136]?
mean z-score: 0.68; z-score, replicate A: 0.67; z-score, replicate B: 0.66; z-score, replicate C: 0.73; call: inactive

For TAF1C [SID134316438], how do the results read?
mean z-score: -0.08; z-score, replicate A: -0.06; z-score, replicate B: -0.14; z-score, replicate C: -0.05; call: inactive

For RPS19 [SID134310070], what was measured?
mean z-score: -2.38; z-score, replicate A: -2.5; z-score, replicate B: -2.38; z-score, replicate C: -2.27; call: inactive

For BIN2 [SID134324548], what was measured?
mean z-score: 0.04; z-score, replicate A: 0.25; z-score, replicate B: 0; z-score, replicate C: -0.13; call: inactive

What is on record for HDX [SID134319929]?
mean z-score: -2.82; z-score, replicate A: -2.51; z-score, replicate B: -2.79; z-score, replicate C: -3.15; call: inactive

With LOC338734 (retired record) [SID134326566], what was measured?
mean z-score: -1.6; z-score, replicate A: -2.11; z-score, replicate B: -1.66; z-score, replicate C: -1.02; call: inactive

What did the screen give for TRA2A [SID134323265]?
mean z-score: 0.81; z-score, replicate A: 0.9; z-score, replicate B: 1.31; z-score, replicate C: 0.21; call: inactive

What is on record for CASP2 [SID134309912]?
mean z-score: -1.17; z-score, replicate A: -0.87; z-score, replicate B: -1.32; z-score, replicate C: -1.32; call: inactive

For CYP19A1 [SID134313157], how do the results read?
mean z-score: 0.13; z-score, replicate A: 0.12; z-score, replicate B: 0.2; z-score, replicate C: 0.07; call: inactive

How did the screen score BIN3 [SID134320122]?
mean z-score: -1.31; z-score, replicate A: -1.45; z-score, replicate B: -1.44; z-score, replicate C: -1.04; call: inactive

Which result is listed for LINC01999 [SID134328800]?
mean z-score: 0.73; z-score, replicate A: 0.97; z-score, replicate B: 0.42; z-score, replicate C: 0.79; call: inactive

How did the screen score SLC6A7 [SID134312653]?
mean z-score: -0.6; z-score, replicate A: -0.36; z-score, replicate B: -0.67; z-score, replicate C: -0.78; call: inactive

For SH3RF2 [SID134312266], what does the deposit list?
mean z-score: 2.71; z-score, replicate A: 2.96; z-score, replicate B: 2.57; z-score, replicate C: 2.61; call: active

For KCNJ10 [SID134311658], what was measured?
mean z-score: -1.26; z-score, replicate A: -1.35; z-score, replicate B: -1.44; z-score, replicate C: -0.99; call: inactive

For KRTAP1-3 [SID134317691], what was measured?
mean z-score: 0.95; z-score, replicate A: 1.2; z-score, replicate B: 1.02; z-score, replicate C: 0.62; call: inactive

How did the screen score MAP4K1 [SID56478699]?
mean z-score: 1.05; z-score, replicate A: 1.33; z-score, replicate B: 0.86; z-score, replicate C: 0.97; call: inactive

What did the screen give for NDUFAB1 [SID134323655]?
mean z-score: -1.7; z-score, replicate A: -1.78; z-score, replicate B: -1.62; z-score, replicate C: -1.68; call: inactive

What did the screen give for PIERCE2 [SID134325336]?
mean z-score: 0.38; z-score, replicate A: 0; z-score, replicate B: 0.88; z-score, replicate C: 0.26; call: inactive

For NMBR [SID134310025], what does the deposit list?
mean z-score: -0.23; z-score, replicate A: -0.4; z-score, replicate B: -0.47; z-score, replicate C: 0.2; call: inactive

Active calls, among the entries above:
SH3RF2 [SID134312266] | mean z-score: 2.71; z-score, replicate A: 2.96; z-score, replicate B: 2.57; z-score, replicate C: 2.61; call: active
